Each structure is given as a SMILES string. This is a selection; strong and weak results do not stand in their true shares. Calls of active or inactive are those of the source. No stated cut-off is given here; in the data, active means inhibition above about 30%; inactive means the rest.

The test system of the experiment is Crimean-Congo hemorrhagic fever virus L polyprotein viral ovarian tumor (vOTU) protease domain. Kind of experiment: CCHFV vOTU protease inhibitors, primary screen, biochemical, Pep-AMC substrate, fluorescence (AID 651958). Further: 0% = vehicle wells with enzyme and 100% = no enzyme wells. To be noted: at 11.5 µM, stronger effect = higher value.
In the case of `O=C(NCC1(N2CCOCC2)CCCCC1)c1cc(Br)ccc1Cl`, the inhibition is inactive: 12.2%.

`COc1cc(C(=O)NCC2(N3CCOCC3)CCCCC2)cc(OC)c1C`: the inhibition was inactive: 12.1%. As to `CCCCn1nnnc1C(c1ccccc1)N1CCC(n2c(=O)[nH]c3ccccc32)CC1` (centres undefined), the inhibition is inactive: 12.6%. As to `O=c1[nH]c2ccccc2n1C1CCN(C(c2ccnc3ccccc23)c2nnnn2C2CCCC2)CC1` (centres undefined), the inhibition is inactive: -1.7%.

In the case of `COc1ccc(C(=O)NCC2(N3CCOCC3)CCCCC2)cc1OC`, the inhibition is inactive: -7.55%. Regarding `NC(=O)C1(Nc2ccccc2)CCN(Cc2ccccc2)CC1`, the inhibition was inactive: 2.22%. As for `O=c1[nH]c2ccccc2n1C1CCN(C(c2cccs2)c2nnnn2C2CCCCC2)CC1` (centres undefined), the figure is inactive: 20.8%; as for `N/C(=N\O)c1c(N)no[n+]1[O-]`, inactive: 7.25%; as for `CCOC(=O)N1CCC(Nc2ccc(C)cc2)CC1`, inactive: -6.07%. For `COc1cccc(C(c2nnnn2C(C)(C)C)N2CCC(n3c(=O)[nH]c4ccccc43)CC2)c1OC` (centres undefined), the inhibition is inactive: -2.87%. To `CCCCn1nnnc1C(c1cccc(OC)c1OC)N1CCC(n2c(=O)[nH]c3ccccc32)CC1` (centres undefined) belongs inactive: 6.91%; to `O=c1[nH]c2ccccc2n1C1CCN(C(c2cccs2)c2nnnn2C2CCCC2)CC1` (centres undefined), inactive: 5.96%. On to `O=C(OC1CN2CCC1CC2)C1c2ccccc2C=Cc2ccccc21` (centres undefined), for which the inhibition was inactive: -2.33%. For `CC(C)(C)OC(=O)N1CCC(N(C(=O)c2ccccc2)c2ccc(Cl)cc2)CC1`, the inhibition is inactive: 6.8%. As to `N#Cc1ccc(C(=O)NCC2(N3CCCCC3)CCCCC2)cc1`, the inhibition was inactive: 2.24%.

On to `Cc1cc(N(CCCl)CCCl)ccc1C=O`, for which the inhibition was inactive: 24.9%. As for `CCCN1CCC(Nc2cc(OC)cc(OC)c2)CC1`, the figure is inactive: 3.51%. As for `O=c1[nH]c2ccccc2n1C1CCN(C(c2ccccc2)c2nnnn2C2CCCC2)CC1` (centres undefined), the inhibition was inactive: 1.28%. For the compound `C/C(N)=N\P(=O)(Oc1ccccc1)Oc1ccccc1`, the inhibition was inactive: 1.58%. Take `c1ccc(CN2CCC(Nc3ccccc3)CC2)cc1`: the inhibition was inactive: 10.6%. Consider `CN(C)C1(CNC(=O)c2cccc(C#N)c2)CCCCC1`, for which the inhibition is inactive: 7.77%.

Turning to `CC(C)(C)n1nnnc1C(c1cccc2ccccc12)N1CCC(n2c(=O)[nH]c3ccccc32)CC1` (centres undefined), the inhibition is inactive: 7.26%.

On to `COc1cc(OC)cc(C(=O)NCC2(N3CCCCC3)CCCCC2)c1`, for which the inhibition was inactive: 9.87%. As for `O=c1[nH]c2ccccc2n1C1CCN(C(c2ccnc3ccccc23)c2nnnn2C2CCCCC2)CC1` (centres undefined), the figure is inactive: -1.67%; as for `CCC(c1nnnn1C1CCCCC1)N1CCC(n2c(=O)[nH]c3ccccc32)CC1` (centres undefined), inactive: -2.09%. As for `COc1cccc(C(c2nnnn2C2CCCCC2)N2CCC(n3c(=O)[nH]c4ccccc43)CC2)c1OC` (centres undefined), the figure is inactive: 7.17%.

`CC(=O)N(c1ccccc1)C1CCNCC1`: the inhibition is inactive: -0.92%. On to `Cc1ccc(NC2(C#N)CCN(Cc3ccccc3)CC2)cc1`, for which the inhibition is inactive: 10.5%.

As to `Fc1ccccc1NC1CCN(Cc2ccccc2)CC1`, the inhibition was inactive: 8.44%. Take `Cc1ccc(C(=O)NCC2(N3CCCCC3)CCCCC2)o1`: the inhibition was inactive: 5.72%.

Consider `CCN1CCC(Nc2cccc(F)c2)CC1`, for which the inhibition is inactive: -5.86%. On to `COc1ccc(C(c2nnnn2C2CCCCC2)N2CCC(n3c(=O)[nH]c4ccccc43)CC2)cc1` (centres undefined), for which the inhibition was inactive: -3.85%. As for `CC(C)(C)n1nnnc1C(c1ccnc2ccccc12)N1CCC(n2c(=O)[nH]c3ccccc32)CC1` (centres undefined), the figure is inactive: -1.19%. As for `Cc1ccccc1NC1(C#N)CCN(Cc2ccccc2)CC1`, the inhibition is inactive: -7.79%. `CN(C)c1ccc(C(=O)NCC2(N3CCCCC3)CCCCC2)cc1`: the inhibition was inactive: -14.6%. With `Cn1c(=O)[nH]cc(N(CCCl)CCCl)c1=O`, the inhibition was inactive: -9.96%. As for `O=C(NCC1(N2CCCCC2)CCCCC1)c1ccco1`, the figure is inactive: -11.5%; as for `CN1CCC(Nc2ccc(F)c(Cl)c2)CC1`, inactive: 1.1%. To `CCOc1ncccc1C(=O)NCC1(N2CCOCC2)CCCCC1` belongs inactive: 6.08%; to `O=c1[nH]c2ccccc2n1C1CCN(C(c2cc3ccccc3o2)c2nnnn2C2CCCC2)CC1` (centres undefined), inactive: 10.7%; to `CCCOc1ccc(C(=O)NCC2(N(C)C)CCCCC2)cc1`, inactive: 8.47%. As to `O=C(O)C1(Nc2ccccc2)CCN(Cc2ccccc2)CC1`, the inhibition was inactive: -10.9%. To `NN(c1ccccc1)C1CCN(CCc2ccccc2)CC1` belongs inactive: 0.02%. With `CC(C)(C)OC(=O)N1CCC(Nc2ccccc2)CC1`, the inhibition was inactive: -2.15%. `CCC(CO)(C(=O)OC1CN2CCC1CC2)c1ccccc1` (centres undefined): the inhibition is inactive: -8.55%.

On to `COc1cccc(C(c2nnnn2C2CCCC2)N2CCC(n3c(=O)[nH]c4ccccc43)CC2)c1OC` (centres undefined), for which the inhibition was inactive: 9.43%. Take `COc1cc(OC)cc(C(=O)NCC2(N3CCOCC3)CCCCC2)c1`: the inhibition was inactive: -0.1%. As for `COc1cccc(C(=O)N(c2cc(C)cc(C)c2)C2CCN(C(=O)OC(C)(C)C)CC2)c1`, the inhibition was inactive: -9.13%. Take `CN1CCC(Nc2ccc(Cl)cc2)CC1`: the inhibition was inactive: 12.5%.
